Stoichiometry N data for one substance are collected here from doi:10.1101/2021.09.13.460081.

One may read the stoichiometry N as the number of molecules, sites or subunits per partner or assembly.

The assay addresses Human parainfluenza virus type 3 large protein (L) (human parainfluenza virus type 3 (hPIV3)). Description: cryo-EM structure.

Regarding “Human parainfluenza virus type 3 large protein (L) (a stretch of the chain, no sequence given) (enzyme)”, the stoichiometry N came out at 2.
